Results of unrelated studies side by side (data: NIAID ChemDB).

All rows: growth or infection tests; agent: Herpes simplex virus 2; read by: plaque count; measure: EC50

Lines come from different laboratories, so protocols vary. An empty or dashed field is not shown. Two numbers with a dash give a range or band. ECn: concentration that inhibits the pathogen or its effect by n%.

compound | strain or isolate | cell line | result
CCn1cc(C(=O)NNC)c(=O)c2ccc(-c3ccncc3)cc21 | - | VERO | >25 µg/mL
O=c1[nH]c(=O)n([C@@H]2O[C@H](CO)[C@@H](O)[C@@H]2O)cc1/C=C/Br | - | HEL | 138 µM
CCn1cc(C(=O)NCCN)c(=O)c2ccc(-c3ccncc3)cc21 | - | VERO | >100 µg/mL
Nc1nc2c(ncn2[C@H]2C=C[C@@H](CO)CC2)c(=O)[nH]1 | - | - | 0.1–1 µM
CC(C)(C)c1ccc(-n2cc(C(N)=O)c(=O)c3ccc(-c4ccncc4)cc32)cc1 | - | VERO | >25 µg/mL
[Cl][Sn]([Cl])([c]1ccccc1)[c]1ccccc1 | MS | HFF | 0.9 µg/mL
Cc1cn([C@@H]2O[C@H](CO)[C@@H](O)[C@@H]2O)c(=S)[nH]c1=O | G | MRC-5 | >365 µM
O=c1[nH]c(=O)n([C@@H]2O[C@H](CO)[C@@H](O)[C@H]2O)cc1/C=C/Br | - | HEL | >917 µM
Nc1nc2c(ncn2C=C2CC2CO)c(=O)[nH]1 | - | - | >100 µM
O=C(O)P(=O)(O)O | 91075 | SIRC | <100 µM
CCn1cc(C(=O)NOC)c(=O)c2ccc(-c3ccncc3)cc21 | - | VERO | >25 µg/mL
CC(C)(C)c1cccc2c1OP(=O)(OC[C@H]1O[C@@H](n3cc(/C=C/Br)c(=O)[nH]c3=O)C[C@@H]1O)OC2 | G (TK+) | VERO | >128 µg/mL
CC/C=C\C/C=C\C/C=C\C/C=C\C/C=C\CCCC(=O)OC(CO[C@H]1O[C@H](CS(=O)(=O)O)[C@@H](O)[C@H](O)[C@H]1O)OC(=O)CCCCCCCCCCCCCCC | - | VERO | 8.5 µg/mL
O=c1[nH]c(=O)n([C@H]2C[C@H](O)[C@@H](COP3(=O)OCc4ccccc4O3)O2)cc1/C=C/Br | G (TK+) | VERO | >128 µg/mL
O=c1[nH]c(=S)n([C@@H]2O[C@H](CO)[C@@H](O)[C@@H]2O)cc1Cl | G | MRC-5 | 207 µM
O=c1[nH]c(=O)n([C@H]2C[C@H](O)[C@@H](CO)O2)cc1/C=C/Br | - | VERO | 8 µM
C[CH2][Sn]([Cl])([Cl])[CH2]C.c1ccc(-c2nc3ccccc3[nH]2)nc1 | MS | HFF | 8.2 µg/mL
COC(=O)[C@H](C)NP(=O)(OC[C@H]1C/C1=C/n1cnc2c(=O)[nH]c(N)nc21)Oc1ccccc1 | - | HFF | 39.2 µM
Cc1cccc2c1OP(=O)(OC[C@H]1O[C@@H](n3cc(/C=C/Br)c(=O)[nH]c3=O)C[C@@H]1OC(=O)[C@@H]1CCCN1)OC2 | G (TK+) | VERO | >128 µg/mL
O=c1[nH]c(=O)n([C@H]2C[C@H](O)[C@@H](CO)O2)cc1F | G | MRC-5 | 200 µM
CC(=O)O[C@H]1C[C@H](n2cc(/C=C/Br)c(=O)[nH]c2=O)O[C@@H]1COP1(=O)OCc2ccccc2O1 | G (TK+) | VERO | >128 µg/mL
Nc1nc(=S)n([C@H]2C[C@H](O)[C@@H](CO)O2)cc1I | G | MRC-5 | 12.2 µM
CCn1cc(C(=O)N(C)C)c(=O)c2ccc(-c3ccncc3)cc21 | - | VERO | >100 µg/mL
COC(=O)[C@H](C)NP(=O)(OC[C@@H]1C[C@]12C[C@@H]2n1cnc2c(N)ncnc21)Oc1ccccc1 | - | HFF | 22 µM
O=c1[nH]c(=O)n([C@H]2C[C@H](O)[C@@H](COP3(=O)OCc4cc(-c5ccccc5)ccc4O3)O2)cc1/C=C/Br | G (TK+) | VERO | >128 µg/mL
COc1cc(O)c2c(=O)cc(-c3ccc(OC)c(-c4c(O)cc(O)c5c(=O)cc(-c6ccc(O)cc6)oc45)c3)oc2c1 | UW-268 | VERO | 0.83 µg/mL
Nc1nc(N)c2ncn(CC/C=C/P(=O)(O)O)c2n1 | MS | MRC-5 | >300 µM
Cc1cccc2c1OP(=O)(OC[C@H]1O[C@@H](n3cc(/C=C/Br)c(=O)[nH]c3=O)C[C@@H]1OC(=O)[C@H]1CCCN1)OC2 | G (TK+) | VERO | >128 µg/mL
NC(=O)c1cn(CCO)c2cc(-c3ccncc3)ccc2c1=O | - | VERO | >50 µg/mL
Nc1nc2c(ncn2[C@@H]2C=C[C@H](CO)CC2)c(=O)[nH]1 | - | - | 0.1–1 µM
O=c1[nH]c(=S)n([C@@H]2O[C@H](CO)[C@@H](O)[C@@H]2O)cc1Br | G | MRC-5 | 62.8 µM
O=c1[nH]c(=O)n([C@@H]2O[C@H](CO)[C@@H](O)[C@@H]2O)cc1C=C(Br)Br | - | HEL | >751 µM
NC(=O)c1cn(-c2ccccc2F)c2cc(-c3ccncc3)ccc2c1=O | - | VERO | >1.6 µg/mL
Cc1cn([C@H]2C[C@H](O)[C@@H](CO)O2)c(=O)[nH]c1=O | G | MRC-5 | >413 µM
CCCCCC[CH2][Sn]([Cl])([Cl])[CH2]CCCCCC | MS | HFF | 17 µg/mL
CCn1cc(C(N)=O)c(=O)c2ccc(-c3ccc(N)cc3)cc21 | - | VERO | >6.25 µg/mL
O=c1[nH]c(=S)n([C@H]2C[C@H](O)[C@@H](CO)O2)cc1I | G | MRC-5 | 1.57 µM
CCc1cn([C@@H]2O[C@H](CO)[C@@H](O)[C@@H]2F)c(=O)[nH]c1=O | - | HEL | 0.77 µM
Nc1ncnc2c1ncn2CC/C=C/P(=O)(O)O | MS | MRC-5 | >300 µM
CC#Cc1cn([C@@H]2O[C@H](CO)[C@@H](O)[C@@H]2O)c(=O)[nH]c1=O | - | HEL | >1135 µM
O=c1[nH]c(=S)n([C@@H]2O[C@H](CO)[C@@H](O)[C@@H]2O)cc1I | G | MRC-5 | >259 µM
CCC(=O)O[C@H]1C[C@H](n2cc(/C=C/Br)c(=O)[nH]c2=O)O[C@@H]1COP1(=O)OCc2cccc(C)c2O1 | G (TK+) | VERO | >64 µg/mL
Nc1ncnc2c1ncn2OCC/C=C/P(=O)(O)O | MS | MRC-5 | >300 µM
O=c1[nH]c(=S)n([C@H]2C[C@H](O)[C@@H](CO)O2)cc1F | G | MRC-5 | 30.7 µM
[Cl][Sn]([Cl])([Cl])[c]1ccccc1 | MS | HFF | <1 µg/mL

Repeating the final 4 entries:

{"compound": "CCC(=O)O[C@H]1C[C@H](n2cc(/C=C/Br)c(=O)[nH]c2=O)O[C@@H]1COP1(=O)OCc2cccc(C)c2O1", "strain or isolate": "G (TK+)", "cell line": "VERO", "result": ">64 µg/mL"}
{"compound": "Nc1ncnc2c1ncn2OCC/C=C/P(=O)(O)O", "strain or isolate": "MS", "cell line": "MRC-5", "result": ">300 µM"}
{"compound": "O=c1[nH]c(=S)n([C@H]2C[C@H](O)[C@@H](CO)O2)cc1F", "strain or isolate": "G", "cell line": "MRC-5", "result": "30.7 µM"}
{"compound": "[Cl][Sn]([Cl])([Cl])[c]1ccccc1", "strain or isolate": "MS", "cell line": "HFF", "result": "<1 µg/mL"}